≈ marks a conversion by molar mass, not a printed value.
Test system: Listeria monocytogenes (L. monocytogenes) CVCC 3764
Type: cell-based
Settings: NB medium, 37 °C, 18 h, three independent measurements
Procedure: MIC was determined using the broth microdilution method with minor modification. In brief, bacteria (S. aureus ATCC 43300, E. faecalis ATCC 29212, E. coli ATCC 25922, P. aeruginosa ATCC 27853, L. monocytogenes CVCC 3764, B. cereus CVCC 4101, S. Castellani CGMCC 1.1869, and the multidrug-resistant E. coli strain) were cultured in nutrient broth (NB) medium (Macklin, Shanghai, China) to the logarithmic phase and diluted to 1 × 10^6 colony forming units (CFUs)/mL. The MDLs were dissolved to a final concentration of 256~0.25 μg/mL in NB medium using two-fold dilutions. A total of 50 μL of different concentrations of the MDL solutions and an equal volume of bacterial suspension were added to a 96-well plate, which was then incubated at 37 °C for 18 h. The minimum concentrations of the MDLs with no visible growth of bacteria were defined as the corresponding MICs. Media containing bacteria without the MDLs were set as the negative control. Each measurement was performed independently three times.

CC[C@H](C)[C@H](NC(=O)CN)C(=O)NCC(=O)N[C@@H](C)C(=O)N[C@H](C(=O)N[C@@H](CC(C)C)C(=O)N[C@@H](CCCCN)C(=O)N[C@H](C(=O)N[C@@H](CC(C)C)C(=O)N[C@H](C(=O)N[C@H](C(=O)NCC(=O)N[C@@H](CC(C)C)C(=O)N1CCC[C@H]1C(=O)N[C@@H](C)C(=O)N[C@@H](CC(C)C)C(=O)N[C@H](C(=O)N[C@@H](CO)C(=O)N[C@@H](Cc1c[nH]c2ccccc12)C(=O)N[C@H](C(=O)N[C@@H](CCCCN)C(=O)N[C@@H](CCCNC(=N)N)C(=O)N[C@@H](CCCCN)C(=O)N[C@@H](CCCNC(=N)N)C(=O)N[C@@H](CCC(N)=O)C(=O)N[C@@H](CCC(N)=O)C(N)=O)[C@@H](C)CC)[C@@H](C)CC)[C@@H](C)O)[C@@H](C)O)C(C)C)C(C)C [Mel, Melittin]
MIC: 32 µg/mL (≈ 11.2 µM)
